Earlier results on 2 molecules are cited in publication PMC5667636 (Antiviral Research, 2017).

SMILES strings stand for the structures. Where two headings read alike, the source gives them in different places.

Data set [1] relates to neuraminidase (NA) of A(H1N1)pdm09 viruses. Conditions: cited from earlier work.
Data set [2] relates to neuraminidase (NA) of B/Victoria-lineage viruses. As to conditions: NA K152M; ref Hurt et al., 2016; cited from earlier work.

`CCOC(=O)C1=C[C@@H](OC(CC)CC)[C@H](NC(C)=O)[C@@H](N)C1` [Oseltamivir, oseltamivir]: the “inhibition phenotype (NI/RI/HRI)” value in data set [1] (footnote c to Table S4, NA AAS and subtype not named at the place, ref Samson et al, 2014) was “HRI (highly reduced inhibition (HRI) when increases of more than 100-fold are detected)”; in data set [1] (footnote c to Table S4, NA AAS and subtype not named at the place, ref Takashita et al, 2015b), “RI (reduced inhibition (RI) when 10- to 100-fold increases are observed)”; in data set [2], “RI (for type B viruses the corresponding fold increases are <5, 5–50 and >50 respectively)”.
As for `CC(=O)N[C@H]1[C@H]([C@H](O)[C@H](O)CO)OC(C(=O)O)=C[C@@H]1N=C(N)N` [Zanamivir, zanamivir], in data set [1] (footnote d to Table S4, NA AAS and subtype not named at the place, ref Meijer et al, 2014), the “inhibition phenotype (NI/RI/HRI)” value is reported as “HRI (highly reduced inhibition (HRI) when increases of more than 100-fold are detected)”.
